Assay results taken from patent US20230111504A1, “COR[…] AND AVERMECTINS” (Huvepharma EOOD, priority 2020, published 2023).

By UniProt entry, the sequences of proteins in these tests, tags left out. Where a name states a change or a piece, a line headed by the entry shows the natural chain unless it says otherwise.
UniProt P11712, whole entry: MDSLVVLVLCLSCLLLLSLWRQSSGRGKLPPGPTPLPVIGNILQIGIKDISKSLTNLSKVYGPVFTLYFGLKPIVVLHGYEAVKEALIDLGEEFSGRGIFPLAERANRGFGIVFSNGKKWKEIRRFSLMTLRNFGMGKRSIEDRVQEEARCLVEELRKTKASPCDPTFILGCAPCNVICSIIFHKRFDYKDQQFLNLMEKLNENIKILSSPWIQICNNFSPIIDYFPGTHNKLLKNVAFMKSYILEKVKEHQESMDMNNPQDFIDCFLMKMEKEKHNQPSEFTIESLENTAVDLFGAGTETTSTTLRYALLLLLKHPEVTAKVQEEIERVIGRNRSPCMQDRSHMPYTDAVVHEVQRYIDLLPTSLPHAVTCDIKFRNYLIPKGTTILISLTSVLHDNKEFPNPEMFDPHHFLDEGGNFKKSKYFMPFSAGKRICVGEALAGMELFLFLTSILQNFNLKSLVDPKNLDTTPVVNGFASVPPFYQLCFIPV
UniProt P05181: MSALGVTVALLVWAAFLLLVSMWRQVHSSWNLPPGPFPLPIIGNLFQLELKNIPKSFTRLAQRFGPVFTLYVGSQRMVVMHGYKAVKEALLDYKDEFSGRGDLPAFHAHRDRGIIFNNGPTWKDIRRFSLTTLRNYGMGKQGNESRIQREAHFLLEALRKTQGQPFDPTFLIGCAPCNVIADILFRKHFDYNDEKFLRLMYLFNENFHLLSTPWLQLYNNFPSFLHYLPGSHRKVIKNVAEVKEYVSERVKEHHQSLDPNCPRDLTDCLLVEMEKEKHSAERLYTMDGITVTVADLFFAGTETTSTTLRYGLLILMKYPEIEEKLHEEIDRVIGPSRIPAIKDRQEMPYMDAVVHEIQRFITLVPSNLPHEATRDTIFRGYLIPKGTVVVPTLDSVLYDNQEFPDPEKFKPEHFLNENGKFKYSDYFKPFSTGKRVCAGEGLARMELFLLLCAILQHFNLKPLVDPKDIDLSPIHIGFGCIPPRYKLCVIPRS
UniProt P08684, whole entry: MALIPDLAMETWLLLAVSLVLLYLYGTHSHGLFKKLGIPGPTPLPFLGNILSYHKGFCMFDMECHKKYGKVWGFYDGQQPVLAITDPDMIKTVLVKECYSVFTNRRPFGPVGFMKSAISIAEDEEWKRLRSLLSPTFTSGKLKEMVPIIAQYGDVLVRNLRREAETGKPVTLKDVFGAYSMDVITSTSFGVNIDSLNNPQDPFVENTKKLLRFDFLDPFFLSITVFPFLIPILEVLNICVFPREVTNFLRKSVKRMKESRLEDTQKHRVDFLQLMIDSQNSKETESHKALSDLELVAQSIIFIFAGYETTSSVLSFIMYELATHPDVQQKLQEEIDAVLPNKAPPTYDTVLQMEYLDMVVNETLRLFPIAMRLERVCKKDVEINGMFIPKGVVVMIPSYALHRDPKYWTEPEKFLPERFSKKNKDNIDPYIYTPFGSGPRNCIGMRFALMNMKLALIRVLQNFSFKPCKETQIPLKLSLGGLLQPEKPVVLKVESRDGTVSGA
UniProt P10635, whole entry: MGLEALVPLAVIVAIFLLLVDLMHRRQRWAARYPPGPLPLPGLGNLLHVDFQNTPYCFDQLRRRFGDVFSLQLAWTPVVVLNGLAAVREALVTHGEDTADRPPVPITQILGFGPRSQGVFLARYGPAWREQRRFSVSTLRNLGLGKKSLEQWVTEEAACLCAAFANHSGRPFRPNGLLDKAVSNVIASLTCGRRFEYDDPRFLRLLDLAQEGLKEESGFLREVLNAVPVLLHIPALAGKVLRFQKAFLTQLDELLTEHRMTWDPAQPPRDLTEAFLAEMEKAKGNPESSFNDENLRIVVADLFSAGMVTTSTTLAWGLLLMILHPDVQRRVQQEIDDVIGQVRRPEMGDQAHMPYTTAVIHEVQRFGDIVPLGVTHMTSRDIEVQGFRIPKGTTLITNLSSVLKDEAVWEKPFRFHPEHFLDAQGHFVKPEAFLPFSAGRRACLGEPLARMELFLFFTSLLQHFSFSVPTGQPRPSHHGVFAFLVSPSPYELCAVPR

Columns and labels:
CYP2C9 = biological target: T1, CYP2C9 (Homo sapiens, UniProt P11712); conditions: clinically relevant concentrations, human liver microsomes; cited from earlier work
T1 construct: from tissue; host or cells: human liver microsomes

COVID-19 = COVID-19 clinical trial: clinical improvement on WHO 9-category ordinal scale; type: in vivo, human
Procedure: Inclusion Criteria • 1. Male or female patients at least 18 years and up to 75 years old • 2. Signed informed consent • 3. Admitted to hospital for treatment of COVID-19. • 4. Patient within 7 days from symptom onset and within 72 hours after laboratory diagnosis (SARS-CoV-2 RT-PCR) • 5. Mild to Moderate COVID-19 disease defined as clinical status category up to 3 on the WHO 9-point ordinal scale, and/or NEWS2 score of 0 to 4 inclusive. • Hospitalized, no oxygen treatment • 6. Presence of at least 1 symptom characteristic for COVID-19 disease, e.g. fever, cough, sore throat, myalgia, fatigue, GI disorders, skin lesions, anosmia, ageusia, headache, etc • 7. In women of childbearing potential, negative pregnancy test and commitment to use contraceptive method throughout the study.
Patients are screened for 24-36 hours. The patients are randomized on Day 1 and treated with ivermectin/placebo+SoC (if required) for 3 days (Day 1-Day 3). […]
The clinical disease severity during the study will be assessed based on the WHO Ordinal Scale for Clinical Status (Table 2). […]
The same picture was observed on Day 5, with difference 18% (p=0.03 . . . ), regarding the endpoint Clinical improvement. This endpoint was measured using WHO 9-category ordinal scale, developed to have a standardized measure of the COVID-19 disease severity. […]

CYP2E1 = biological target: T2, CYP2E1 (Homo sapiens, UniProt P05181); conditions: clinically relevant concentrations, human liver microsomes; cited from earlier work
T2 construct: from tissue; host or cells: human liver microsomes

CYP3A4 [1] = biological target: T3, CYP3A4 (Homo sapiens, UniProt P08684); conditions: human liver microsomes and recombinant CYP450 enzymes; cited from earlier work
T3 construct: host or cells: human liver microsomes and recombinant CYP450 enzymes

CYP3A4 [2] = biological target: T3, CYP3A4; conditions: clinically relevant concentrations, human liver microsomes; cited from earlier work
CYP2D6 = biological target: T4, CYP2D6 (Homo sapiens, UniProt P10635); conditions: clinically relevant concentrations, human liver microsomes; cited from earlier work
T4 construct: from tissue; host or cells: human liver microsomes

[3] = acute oral, rhesus monkeys; cited from earlier work
[4] = 30 mg oral, high-fat (48.6 g of fat) meal vs fasted; cited from earlier work

ivermectin
inhibition of metabolizing activity of CYP2C9 (CYP2C9): do not significantly inhibit
Odds ratio of clinical improvement (COVID-19; fifth and the next days): decrease but remain higher
Odds ratio: chances of clinical improvement versus SoC arm (COVID-19; fourth day, FIG. 4): more than twice higher
inhibition of metabolizing activity of CYP2E1 (CYP2E1): do not significantly inhibit
main metabolizing enzyme (CYP3A4 [1]): primarily metabolized by CYP3A4
inhibition of metabolizing activity of CYP3A4 (CYP3A4 [2]): do not significantly inhibit
inhibition of metabolizing activity of CYP2D6 (CYP2D6): do not significantly inhibit
minimum toxic dose relative to the clinical dose [3]: approximately 10 fold
increase in bioavailability after high-fat meal relative to fasted state [4]: ~2.5 fold
